PubChem BioAssay AID624099 – ICCB-Longwood – 2012

Assay: 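Human genes that papillomavirus E2 requires to repress the HPV18 LCR promoter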 (primary screen)
Cells: human C33A cervical carcinoma cells (HPV-negative) stably expressing BPV1 E2 and an HPV18 LCR luciferase reporter
Reagent: siRNA pool against human genes, 40 nM
Time to read-out: 72 h
Read-out: 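HPV18 LCR reporter light per well, converted to plate-wise z-scores that exclude control wells, and averaged over triplicate plates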
Reading the numbers: mean z-score and z-score: higher = stronger reporter signal, weaker E2 silencing
Rule for the call: 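Hit if mean z-score reaches 2 and two or more of three replicate z-scores also reach 2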
Here is an unselected part of about 21,000 reagents. 497 of them (2.4%) count as active. 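Higher z means weaker E2 silencing; only reporter increases were scored, and knock-downs that hurt cell survival may mask genuine repressor factors.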

TMX1: mean z-score = 0.12; z-score, replicate A = 0.3; z-score, replicate B = -0.38; z-score, replicate C = 0.43; outcome = inactive
DRAP1: mean z-score = 0.89; z-score, replicate A = 0.97; z-score, replicate B = 0.9; z-score, replicate C = 0.79; outcome = inactive
CHMP6: mean z-score = 0.82; z-score, replicate A = 1.19; z-score, replicate B = 0.78; z-score, replicate C = 0.49; outcome = inactive
FBXW2: mean z-score = 1.55; z-score, replicate A = 1.51; z-score, replicate B = 1.58; z-score, replicate C = 1.56; outcome = inactive
SLITRK1: mean z-score = 0.91; z-score, replicate A = 1.07; z-score, replicate B = 0.79; z-score, replicate C = 0.87; outcome = inactive
LDOC1: mean z-score = -0.08; z-score, replicate A = -0.02; z-score, replicate B = -0.1; z-score, replicate C = -0.13; outcome = inactive
RBM26: mean z-score = -0.9; z-score, replicate A = -1; z-score, replicate B = -1.09; z-score, replicate C = -0.6; outcome = inactive
PCOLCE: mean z-score = 2.11; z-score, replicate A = 1.92; z-score, replicate B = 2; z-score, replicate C = 2.42; outcome = active
SF3B1: mean z-score = -4.29; z-score, replicate A = -4.21; z-score, replicate B = -4.6; z-score, replicate C = -4.06; outcome = inactive
ITCH: mean z-score = 1.12; z-score, replicate A = 1.2; z-score, replicate B = 1.23; z-score, replicate C = 0.91; outcome = inactive
PTH2R: mean z-score = -0.9; z-score, replicate A = -0.92; z-score, replicate B = -0.74; z-score, replicate C = -1.03; outcome = inactive
PCGF6: mean z-score = -0.27; z-score, replicate A = -0.56; z-score, replicate B = -0.41; z-score, replicate C = 0.15; outcome = inactive
EWSAT1: mean z-score = 1.19; z-score, replicate A = 1.18; z-score, replicate B = 1.28; z-score, replicate C = 1.11; outcome = inactive
SLC3A2: mean z-score = 0.45; z-score, replicate A = 0.1; z-score, replicate B = 0.46; z-score, replicate C = 0.78; outcome = inactive
TMED1: mean z-score = -0.64; z-score, replicate A = -0.66; z-score, replicate B = -0.65; z-score, replicate C = -0.61; outcome = inactive
GAGE4: mean z-score = -1.38; z-score, replicate A = -1.48; z-score, replicate B = -1.47; z-score, replicate C = -1.19; outcome = inactive
COX8C: mean z-score = -0.43; z-score, replicate A = -0.52; z-score, replicate B = -0.63; z-score, replicate C = -0.14; outcome = inactive
NANOS1: mean z-score = 0.16; z-score, replicate A = 0.11; z-score, replicate B = 0; z-score, replicate C = 0.38; outcome = inactive
NKAPL: mean z-score = -0.9; z-score, replicate A = -0.83; z-score, replicate B = -0.97; z-score, replicate C = -1.13; outcome = inactive
RANBP10: mean z-score = -0.86; z-score, replicate A = -0.85; z-score, replicate B = -0.67; z-score, replicate C = -1.07; outcome = inactive
SFSWAP: mean z-score = -0.85; z-score, replicate A = -0.84; z-score, replicate B = -1.02; z-score, replicate C = -0.7; outcome = inactive

A few values from the entries so far:
RANBP10, z-score, replicate C → -1.07
Under “z-score, replicate A”, SF3B1 shows -4.21
Entry of NANOS1 under “z-score, replicate C”: 0.38
